Source: patent publication US7951827B2, “Synthesis and antiprotozoal activity of dicationic 3,5-diphenylisoxazoles” (The University of North Carolina at Chapel Hill, priority 2005, dated 2011)

Tested on: Plasmodium falciparum
Test: In vitro antiprotozoal activity against Plasmodium falciparum
Type: cell-based
Details: P. falciparum vs VERO cytotoxicity, relative to furamidine
Description: In vitro antiprotozoal activities, see Ismail, M. A., et al., J. Med. Chem. 46, 4761-4769 (2003), and cytotoxicity were measured following established protocols, see Balz, T., et al., EMBO J., 4, 1273-1277 (1985); Räz. […] Other positive controls employed were melarsoprol (against T. brucei), chloroquine, and artemisinin (against P. falciparum), and podophyllotoxin (against VERO cells).

SMILES: COc1cc(C(=N)N)ccc1-c1cc(-c2cccc(C(=N)N)c2)no1.Cl.Cl [Compound 18, 5-(4-Amidino-2-methoxyphenyl)-3-(3-amidinophenyl)isoxazole dihydrochloride]
- therapeutic indices, times greater than that of furamidine: 120 times

SMILES: COc1ccc(C(=N)N)cc1-c1cc(-c2ccc(C(=N)N)cc2)on1.Cl.Cl [Compound 21, 3-(5-Amidino-2-methoxyphenyl)-5-(4-amidinophenyl)isoxazole dihydrochloride]
- therapeutic indices, times greater than that of furamidine: 200 times

Some results come without the dose or concentration used.
